The values that follow come from patent publication US20250066704A1, “CIRCUIT LADDER MICROFLUIDIC PLATFORM (CLAMP) FOR RAPID ANTIMICROBIAL SUSCEPTIBILITY TESTING (AST)” (CORNELL UNIVERSITY, priority 2023, published 2025).

The data set has as its system bacterial isolates from canine urinary tract infections (Escherichia coli, Proteus mirabilis, Enterococcus faecalis, Staphylococcus pseudintermedius). The data set can be described thus: On-chip AST with the ladder microfluidic system, MICs compared with the Sensititre Veterinary UTI plate (SVU). The class given is cell-based. Conditions: 30 canine UTI isolates (EC, PRM, SP, EF); match = on-chip MIC within ±one 2-fold dilution of SVU MIC; 4-5 h incubation at 37° C.

Turning to `CC1=C(C(=O)O)N2C(=O)[C@@H](NC(=O)[C@H](N)c3ccccc3)[C@H]2SC1` [Cefalexin], the “MIC accuracy of on-chip AST (on-chip MIC matching SVU MIC)” value (“MIC accuracy of on-chip AST” for short) was determined as 96.30%.

In the case of `CO/N=C(\C(=O)N[C@@H]1C(=O)N2C(C(=O)O)=C(CSC(=O)c3ccco3)CS[C@H]12)c1csc(N)n1` [Ceftiofur], the “MIC accuracy of on-chip AST” value was 96.55%.

Regarding `CCN1CCN(c2cc3c(cc2F)c(=O)c(C(=O)O)cn3C2CC2)CC1` [Enrofloxacin], the “MIC accuracy of on-chip AST” value is on record as 83.33%.

With `CC1(C)S[C@@H]2[C@H](NC(=O)[C@H](N)c3ccccc3)C(=O)N2[C@H]1C(=O)O` [Ampicillin], the “MIC accuracy of on-chip AST” value came out at 100.0%.
